Measured values from several laboratories, pooled; numbers as filed in NIAID ChemDB.

All rows: tests in culture; organism: Mycobacterium tuberculosis

ECn is the concentration giving n% inhibition of infection, replication or growth.

SMILES	mutations	setting	read-out	read by	dose	strain	result
O=C(CN1CCN(CC(=O)c2ccccc2)CC1)c1ccccc1			inhibition	BACTEC	12.8 µg/mL	H37Rv	-7%
CCOC(=O)CC(c1cccc(Cl)c1)N1CCCC1			MIC			Sensitive strains	12.5 µg/mL
CC1CN(c2c(F)cc3c(=O)c(C(=O)O)cn(C4CC4)c3c2F)CC(C)N1			MIC			CSU25	≤0.125 µg/mL
COc1cc(C2=NN(C(=O)COc3ccc4ccccc4c3)[C@H](Cc3ccccc3)C2)c(C)cc1OCC(=O)O			MIC			H37Rv	>6.25 µg/mL
CCc1nc2ccccc2n1CCCCSc1nnc(-c2ccc(Cl)cc2)o1	QcrB M342T		MIC90	turbidity / fluorescence		H37Rv	47 µM
O=Nc1sc(=S)n(C2CCCCC2)c1O			MIC	BACTEC		H37Rv	≥12.8 µg/mL
O=c1oc2ccc(Br)cc2cc1-c1cs/c(=N\N=C\c2cc(Br)ccc2O)n1C1CCCCC1			inhibition		12.5 µg/mL	H37Rv	20%
O=C1N=c2ccc(Br)cc2=C1c1sc(=O)n(Cc2nc3ccccc3[nH]2)c1O			inhibition	BACTEC	12.5 µg/mL	H37Rv	0%
O=C(Nc1ccc(C(F)(F)F)cc1)c1cc(Cl)ccc1OP(=O)(c1ccccc1)c1ccccc1		14 d	MIC			234/2005	1 µM
COc1ccc(-c2noc(C3=CC4(CCN(CC5CCCO5)CC4)c4ccccc43)n2)cc1	Spiroindene-resistant		MIC	turbidity		TB375	3 µM
O=C(CCC(=O)c1ccc(Cl)cc1)NC[C@H]1CN(c2ccc(-n3cncn3)c(F)c2)C(=O)O1			MIC			ATCC 27294	4 µg/mL
CCCCCCCCCCCCNC(CC(=O)OCC)c1ccccc1[N+](=O)[O-]			MIC			H37Ra	<25 µg/mL
CC(C)(C)c1ccc(C(=O)CCC(=O)NC[C@H]2CN(c3ccc(N4CCOCC4)c(F)c3)C(=O)O2)cc1			MIC			10 clinical isolates resistant	2–4 µg/mL
C=CCN=C(N=Nc1c(O)[nH]c2ccc(Br)cc12)SCC(=O)c1ccc(Br)cc1			inhibition		12 µg/mL	H37Rv	98%
COc1ccc([C@H]2CC(=O)c3c(OC(C)=O)cc(OC(C)=O)cc3O2)cc1OC(C)=O			MIC	BACTEC		H37Rv	≥128 µg/mL
C=CCN=C(N=Nc1c(O)[nH]c2ccccc12)SCC(=O)c1ccc(Br)cc1			inhibition		12 µg/mL	H37Rv	87%
C=CCCN(c1ccc(C(=O)NC(CCC(=O)OCC)C(=O)OCC)cc1)S(=O)(=O)c1ccc(C)cc1			MIC bound	BACTEC		H37Rv	>12.5 µg/mL
O=C(CSc1nc2ccccc2[nH]1)N=Nc1c(O)[nH]c2ccccc12			inhibition		12 µg/mL	H37Rv	1%
C[C@H]1COc2c(N3CCN(C)CC3)c(F)cc3c(=O)c(C(=O)O)cn1c23			MIC			1773-6	0.25 µg/mL
OC(c1cc(-c2ccc(Cl)cc2)nc2ccccc12)C1CCCCN1			inhibition	resazurin	6.25 µg/mL	H37Rv	99%
Cc1ccc(-c2noc(C3=CC4(CCN(CC5CCCO5)CC4)c4ccccc43)n2)cn1	Drug-resistant		MIC	resazurin		18b+	1.56 µM
CCOC(=O)c1s/c(=N\N=C2/C(=O)Nc3ccccc32)n(-c2ccc(C)cc2)c1C			MIC			H37Rv	>12.5 µg/mL
CO[C@H]1/C=C/O[C@@]2(C)Oc3c(C)c(O)c4c(O)c(c(/C=N/N5CCN(C/C=C/c6ccccc6)CC5)c(O)c4c3C2=O)NC(=O)/C(C)=C\C=C\[C@H](C)[C@H](O)[C@@H](C)[C@@H](O)[C@@H](C)[C@H](OC(C)=O)[C@@H]1C			MIC			MTB14 (RIF-S)	≤0.06 µg/mL
CCCCCCCCNC(CC(=O)OCC)c1ccccc1			MIC			Sensitive strains	25 µg/mL
O=c1oc2ccccc2cc1-c1cs/c(=N\N=C\c2cc([N+](=O)[O-])ccc2O)n1C1CCCCC1			EC50			H37Rv	>6.25 µg/mL
CCCCn1c(-c2cc3cc(Br)ccc3oc2=O)cs/c1=N\N=C\c1cc(Br)ccc1O			MIC			H37Rv	>12.5 µg/mL
CC(=O)O[C@H]1C(=O)[C@@]2(C)[C@H]([C@H](OC(=O)c3ccccc3)[C@]3(O)C[C@H](OC(=O)[C@H](O)[C@@H](NC(=O)c4ccccc4)c4ccccc4)C(C)=C1C3(C)C)[C@]1(OC(C)=O)CO[C@@H]1C[C@@H]2O			MIC bound	BACTEC		H37Rv	>12.8 µg/mL
COc1ccccc1/C=N/N=c1\scc(-c2cc3cc(Br)ccc3oc2=O)n1C1CCCCC1			EC50			H37Rv	>6.25 µg/mL
CC(C)Cc1ccc(C(=O)CCC(=O)NC[C@H]2CN(c3ccc(N4CCCCC4)c(F)c3)C(=O)O2)cc1			MIC			10 clinical isolates sensitive	>16 µg/mL
CCn1c(-c2cc3ccccc3oc2=O)cs/c1=N\N=C\c1ccc(Cl)cc1			EC50			H37Rv	>12.5 µg/mL
C1=C(c2nc(-c3ccccc3)no2)c2ccccc2OC12CCN(CC1CCCO1)CC2			MIC	turbidity		H37Rv	3.1 µM
CCc1nc2ccc(C)cc2n1CCCNc1ccc(Br)c(C)c1	Rv1339 V90M		MIC90	turbidity / fluorescence		H37Rv	0.62 µM
O=C1c2cc(Cl)ccc2OP(=O)(c2ccccc2)N1c1ccc(Cl)c(Cl)c1		14 d	MIC			My 331/88	2 µM
CCNC(=O)c1ccc2c(c1NCC)C(=O)c1ccccc1C2=O			MIC bound	BACTEC		H37Rv	>12.5 µg/mL
CCc1nc2ccc(C)cc2n1CCCCSc1ccc(OC)cc1	WT		MIC90	turbidity / fluorescence		H37Rv	9.4 µM
O=c1oc2ccccc2cc1-c1cs/c(=N/N=C/c2ccc(Cl)cc2)n1C1CCCCC1			EC50			H37Rv	<12.5 µg/mL
Cc1cccc(-n2c(-c3ccccc3)cs/c2=N/NC(=O)CSc2nnc(-c3ccccn3)s2)c1			MIC			Clinical isolate 190	>80 µg/mL
Oc1ccccc1CNCCCCCNCc1ccccc1O			MIC			Sensitive strains	25 µg/mL
CN=C(N=Nc1c(O)[nH]c2ccccc12)SCC(=O)c1ccc(Br)cc1			inhibition		12 µg/mL	H37Rv	99%
COc1ccc(/C=N/N=c2/scc(-c3cc4cc(Br)ccc4oc3=O)n2C2CCCCC2)cc1OC			EC50			H37Rv	>6.25 µg/mL
O=C(Nc1ccc(C(F)(F)F)cc1)c1cc(Br)ccc1OP(=O)(Oc1ccccc1)Oc1ccccc1		7 d	MIC			My 331/88	2 µM
Cc1ccc(-n2c(-c3ccccc3)cs/c2=N/NC(=O)CSc2nnc(-c3ccccn3)s2)cc1			MIC			Clinical isolate 331	40 µg/mL
COc1cc(/C=N/N=c2/scc(-c3cc4cc(Br)ccc4oc3=O)n2C2CCCCC2)ccc1O			EC50			H37Rv	>6.25 µg/mL
O=C1c2cc(Br)ccc2OP(=O)(c2ccccc2)N1c1ccc(C(F)(F)F)cc1		14 d	MIC			Praha 1	1 µM
CC(=O)NC[C@H]1CN(c2ccc(N3CCN(c4ccc([N+](=O)[O-])s4)CC3)c(F)c2)C(=O)O1			MIC			PC	0.5 µg/mL
CCCCn1c(-c2cc3ccccc3oc2=O)cs/c1=N\N=C\c1cc(Br)ccc1O			EC50			H37Rv	>12.5 µg/mL
CC(=O)Oc1ccc(-c2coc3c4c(c(CC=C(C)C)c(OC(C)=O)c3c2=O)OC(C)(C)C=C4)cc1OC(C)=O			MIC bound	BACTEC		H37Rv	>12.5 µg/mL
CCc1nc2ccc(C)cc2n1CCCCSc1ccc(Cl)cc1	WT		MIC90	turbidity / fluorescence		H37Rv	16 µM
CCN1C(=O)C(C)S/C1=N/N=C1\C(=O)Nc2ccc(Br)cc21			MIC			H37Rv	>12.5 µg/mL
O=C1CCCCCCCCCCCCCCCO1			inhibition	BACTEC	128 µg/mL	H37Rv	93%
CO[C@H]1/C=C/O[C@@]2(C)Oc3c(C)c(O)c4c(O)c(c5c(c4c3C2=O)NC2(CCN(CC(C)C)CC2)N=5)=NC(=O)/C(C)=C\C=C\[C@H](C)[C@H](O)[C@@H](C)[C@@H](O)[C@@H](C)[C@H](OC(C)=O)[C@@H]1C			MIC			CSU22	4 µg/mL
CCCCCCCCC=CCCCCCCCCNCc1ccncc1			MIC			Sensitive strains	6.25 µg/mL
C1=C(c2nc(-c3ccccc3)no2)c2ccccc2C12CCN(CC1CC1)CC2			MIC	resazurin		H37Rv	0.4 µM
O=C(CSc1nnc(-c2ccccn2)s1)N/N=c1/scc(-c2ccc([N+](=O)[O-])cc2)n1-c1ccccc1			MIC			Clinical isolate 331	>80 µg/mL
O=c1oc2ccc(Br)cc2cc1-c1cs/c(=N/N=C/c2ccc(Br)cc2)n1C1CCCCC1			EC50			H37Rv	>6.25 µg/mL
NNC(=O)c1ccncc1	inhA mutant isoniazid resistant		MIC	resazurin / absorbance		HUG.MB.3649	0.08 µg/mL
CC[C@@H](CO)NCCN[C@@H](CC)CO	Ofloxacin-resistant		MIC	resazurin		12119	1.2 µM
COC(=O)C1(O)C(=O)NC2=C1C(=O)c1ccccc1C2=O			inhibition	resazurin	6.25 µg/mL	H37Rv	14%
NC1[C@H]2CN(c3nc4c(cc3F)c(=O)c(C(=O)O)cn4-c3ccc(F)cc3F)C[C@@H]12			MIC90			37 strains (drug-resistant)	>4 µg/mL
CCCCCCCCCCCCCCCCNCc1ccncc1			MIC			Clinical isolates MDR	3.12 µg/mL
O=C(CSc1nnc(-c2ccccn2)s1)N/N=c1/scc(-c2ccc(Br)cc2)n1-c1ccccc1			MIC			H37Rv	40 µg/mL
O=C1C=CC2C3C=CC(C(=O)C3=O)C2C1=O			inhibition		6.25 µg/mL	H37Rv	-11%
C1=C(c2nc(-c3cccnc3)no2)c2ccccc2C12CCN(CC1CCCO1)CC2	Spiroindene-resistant		MIC	turbidity		H37Rv	1.5 µM
O=C1c2ccccc2OP(=O)(c2ccccc2)N1c1ccccc1		14 d	MIC			My 331/88	>500 µM
CCOc1ccc(N2CC(=O)N3CCCCN3C(=O)C2)cc1			inhibition	BACTEC	12.5 µg/mL	H37Rv	7%
O=C(CSc1nnc(-c2ccccn2)s1)N/N=c1/scc(-c2ccccc2)n1-c1ccccc1			MIC			Clinical isolate 180	>80 µg/mL
CC1C(=O)OC2CC[N+]3(C(=O)C(F)(F)F)CC4OC4(COC(=O)C(C)(O)C1(C)O)C23.O=C([O-])C(F)(F)F			inhibition	BACTEC	12.5 µg/mL	H37Rv	1%
CO/N=C1\CN(c2nc3c(cc2F)c(=O)c(C(=O)O)cn3C2CC2)CC1CN			MIC90			45 strains (drug-susceptible)	>4 µg/mL
NS(=O)(=O)c1cc2c(cc1Cl)NC(CCC(=O)O)=NS2(=O)=O			inhibition	resazurin	6.25 µg/mL	H37Rv	1%
CCCCCCCCNC(CC(=O)OCC)c1cccc([N+](=O)[O-])c1			MIC			H37Ra	>25 µg/mL
O=C1c2cc(Cl)ccc2OP(=O)(c2ccccc2)N1c1ccc(C(F)(F)F)cc1		21 d	MIC			Praha 1	1 µM
Nc1nnc2nc(CC(=O)Cc3ccccc3)c(CC(=O)Cc3ccccc3)nn12			MIC bound	BACTEC		H37Rv	>12.5 µg/mL
O=C(Nc1ccc(Cl)c(Cl)c1)c1cc(Cl)ccc1OP(=O)(Oc1ccccc1)Oc1ccccc1		7 d	MIC			My 331/88	2 µM
C=C1C(=O)OC2C1CC(OC(C)=O)/C(C)=C\CCC1(C)OC21			MIC bound	BACTEC		H37Rv	>12.5 µg/mL
NNC(=O)c1ccncc1			MIC			CSU28	≤0.125 µg/mL
NC1=NS(=O)(=O)Nc2nn(-c3ccccc3)nc21			inhibition	resazurin	6.25 µg/mL	H37Rv	-5%
CC1COc2c(N3CCN(C)CC3)c(F)cc3c(=O)c(C(=O)O)cn1c23	Ofloxacin-resistant		MIC	resazurin		12119	>11 µM
CCOC(=O)/C=C/C(=O)N1CCN(C(=O)/C=C/C(=O)OCC)C(C)C1			inhibition	BACTEC	12.5 µg/mL	H37Rv	-5%
O=C(O)c1cn(C2CC2)c2c(F)c(N3CCSCC3)c(F)cc2c1=O			MIC			CSU15	0.25 µg/mL
O=C1/C(=c2\c3ccccc3n3c(=O)c4ccccc4nc23)Nc2ccccc21			MIC	BACTEC		H37Rv	≥12.5 µg/mL
CSc1ccc(C(=O)CCC(=O)NC[C@H]2CN(c3ccc(N4CCCC4)c(F)c3)C(=O)O2)cc1			MIC			10 clinical isolates sensitive	>16 µg/mL

Again, the opening 8 rows:

SMILES | mutations | setting | read-out | read by | dose | strain | result
O=C(CN1CCN(CC(=O)c2ccccc2)CC1)c1ccccc1 |  |  | inhibition | BACTEC | 12.8 µg/mL | H37Rv | -7%
CCOC(=O)CC(c1cccc(Cl)c1)N1CCCC1 |  |  | MIC |  |  | Sensitive strains | 12.5 µg/mL
CC1CN(c2c(F)cc3c(=O)c(C(=O)O)cn(C4CC4)c3c2F)CC(C)N1 |  |  | MIC |  |  | CSU25 | ≤0.125 µg/mL
COc1cc(C2=NN(C(=O)COc3ccc4ccccc4c3)[C@H](Cc3ccccc3)C2)c(C)cc1OCC(=O)O |  |  | MIC |  |  | H37Rv | >6.25 µg/mL
CCc1nc2ccccc2n1CCCCSc1nnc(-c2ccc(Cl)cc2)o1 | QcrB M342T |  | MIC90 | turbidity / fluorescence |  | H37Rv | 47 µM
O=Nc1sc(=S)n(C2CCCCC2)c1O |  |  | MIC | BACTEC |  | H37Rv | ≥12.8 µg/mL
O=c1oc2ccc(Br)cc2cc1-c1cs/c(=N\N=C\c2cc(Br)ccc2O)n1C1CCCCC1 |  |  | inhibition |  | 12.5 µg/mL | H37Rv | 20%
O=C1N=c2ccc(Br)cc2=C1c1sc(=O)n(Cc2nc3ccccc3[nH]2)c1O |  |  | inhibition | BACTEC | 12.5 µg/mL | H37Rv | 0%

MIC bound comes from a single tested concentration. Percent inhibition refers to the dose given; in toxicity tests it is the harm to the cells. MIC50, MIC90 and the like: level of inhibition, or share of isolates inhibited. Two numbers with a dash give a range or band. Neighbouring rows are from separate reports. An empty or dashed field is not shown.